Compound potency records, mixed from different reports. Data source: NIAID ChemDB in PubChem.

Common to all: tests in culture; organism: Mycobacterium tuberculosis

Two numbers with a dash give a range or band.

compound	strain	dose	endpoint	read by	result
CN(C)/C=N/S(=O)(=O)c1nn2c(/C=N/N=C(N)N)c(-c3ccc(Cl)cc3)nc2s1	H37Rv		MIC		>6.25 µg/mL
Cc1cc2nc(Nc3nc(C)c(C)c(=O)[nH]3)[nH]c2cc1C	H37Rv		MIC bound	resazurin	>6.25 µg/mL
CC(CC(=O)NN)Nc1ccc2ccccc2c1	H37Rv	10 µg/mL	inhibition		100%
Cc1c(NC(=O)CSc2nnc(-c3ccco3)n2C)c(=O)n(-c2ccccc2)n1C	H37Rv	6.25 µg/mL	inhibition	resazurin	inactive
CCOC(=O)C[C@H](NCCCN[C@@H](CC(=O)OCC)C1O[C@@H]2OC(C)(C)O[C@@H]2[C@H]1OCc1ccccc1)C1O[C@@H]2OC(C)(C)O[C@@H]2[C@H]1OCc1ccccc1	H37Rv		MIC		25 µg/mL
CCCCCCCCCCCCCCCCCCCSCCCC(=O)O	H37Ra		MIC50		0.63–1.25 µg/mL
O=C1C=C(Nc2ccccc2C(=O)CC(=O)C(=O)Nc2cccc([N+](=O)[O-])c2)c2ccccc2C1=O	H37Rv		MIC	resazurin	≤0.1 µg/mL
CC(=O)c1c2c(cc3c(=O)c4c(O)cc5c(c4oc13)C=CC(C)(C)O5)C(C)(C)OC2=O			MIC		100 µg/mL
CCOC(=O)c1ccc2c(c1)nc(-c1ccc(C(F)(F)F)cc1)n2CCN1CCCC1=O	H37Rv		EC90	resazurin / fluorescence	>100 µM
NNC(=O)c1ccncc1	H37Rv		MIC	visual reading / absorbance	6.2 µM
CC(=O)Oc1cc(Cl)ccc1C(=O)Nc1ccc(Cl)cc1	My 331/88		MIC		2 µg/mL
Nc1ccc(C(=O)N/C(=C\c2cccc([N+](=O)[O-])c2)c2nc3c4c(ccc3[nH]2)C(=O)c2ccccc2C4=O)cc1	H37Rv	6.25 µg/mL	inhibition	resazurin	33%
COc1cc(Cc2cnc(/N=C3\C(=O)N(CN4CCN(c5ccccc5)CC4)c4ccc(C)cc43)nc2N)cc(OC)c1OC	H37Rv		MIC		18 µg/mL
O=c1c2ccccc2nc2n1CCc1c-2[nH]c2ccccc12	H37Rv		MIC	broth dilution / resazurin	54 µM
Oc1ccc(Br)cc1C1N(Cc2ccc(N(CCCl)CCCl)cc2Cl)CCCN1Cc1ccc(N(CCCl)CCCl)cc1Cl	H37Rv	12.5 µg/mL	inhibition	BACTEC	0%
CC(=O)Cc1oc2c3c(cc(O)c2c(=O)c1CCC(C)(C)O)OC(C)(C)C=C3			MIC		12.5 µg/mL
CN[C@@H]1[C@H](O)[C@H](NC)[C@H]2O[C@@]3(O)[C@H](NC(=O)c4ccco4)C[C@@H](C)C[C@H]3O[C@@H]2[C@H]1O	H37Rv		MIC	broth dilution	100 µg/mL
CCCCCCCC/C=C/CCCCCC1CCCC(C)N1	INH-r		MIC		6.3 µg/mL
CCc1nc(N)nc(N)c1-c1ccc(Cl)cc1	H37Rv		EC90	resazurin / fluorescence	>100 µM
Cc1cc(C(=O)O)c(C(N)=O)c(Cl)n1	H37Rv		MIC	BACTEC	≥12.5 µg/mL
COc1cc(Cc2cnc(/N=C3\C(=O)N(CN4CCN(c5ccc(Cl)cc5)CC4)c4ccc(C)cc43)nc2N)cc(OC)c1OC	H37Rv		MIC		28 µg/mL
Cc1ccc(-c2nc3sc(S(=O)(=O)/N=C/N(C)C)nn3c2/C=N/N=C(N)N)cc1	H37Rv		MIC		>6.25 µg/mL
CCOC(=O)C[C@H](NCCCCCCCN[C@H](CC(=O)OCC)[C@H]1O[C@@H]2CC(C)(C)C[C@@H]2[C@H]2CC(C)(C)C[C@H]21)[C@H]1O[C@@H]2CC(C)(C)C[C@@H]2[C@H]2CC(C)(C)C[C@H]21	H37Rv		MIC		>25 µg/mL
C/C=C(/C)C(=O)O[C@@H]1CC(C)(C)C[C@H]2C3=CC[C@@H]4[C@@]5(C)CCC(O)C(C)(C)[C@@H]5CC[C@@]4(C)[C@]3(C)CC[C@@]12C(=O)O	H37Rv		MIC		18 µg/mL
COC(=O)NC[C@H]1CN(c2cc(F)c(N3C[C@@H]4OC(=O)N[C@@H]4C3)c(F)c2)C(=O)O1	H37Rv		MIC100	resazurin	1.25 µM
O=[N+]([O-])c1cn2c(n1)OC[C@@H](OC/C=C/c1ccc(-c3ccc(C(F)(F)F)nc3)cc1)C2	H37Rv		MIC	resazurin	2 µM
CC1(C)CC[C@]2(C(=O)O)CC[C@]3(C)C(=CC[C@@H]4[C@]56CCC(O)(OC5)C(C)(C)[C@@H]6CC[C@]43C)[C@@H]2C1	H37Rv		MIC		>80 µg/mL
CC(=O)Oc1c(Cl)cccc1C(=O)Nc1ccc(C(F)(F)F)cc1	My 331/88		MIC		4 µg/mL
COc1cccc(N2CCN(CN3C(=O)/C(=N\c4ncc(Cc5cc(OC)c(OC)c(OC)c5)c(N)n4)c4cc(C)ccc43)CC2)c1	H37Rv		MIC		15 µg/mL
COc1cc(CCCOC2OC(COC3OCC(O)C(O)C3O)C(O)C(O)C2O)cc2cc(-c3ccc4c(c3)OCO4)oc12	H37Rv	12.5 µg/mL	inhibition	BACTEC	-4%
CC(=O)Oc1cc(Cl)ccc1C(=O)Nc1cccc(Cl)c1	My 331/88		MIC		8 µg/mL
CCCc1cc(C(=O)N/N=C/c2ccccc2OC)c2ccccc2n1	H37Rv		MIC bound	BACTEC	>12.5 µg/mL
Oc1ccc(-c2cn3nc(C(F)(F)F)sc3n2)cc1	H37Rv		MIC		50 µg/mL
Cc1noc(-c2ccc([N+](=O)[O-])o2)n1	H37Rv	12.5 µg/mL	inhibition	BACTEC	27%
Cc1c(CN2CCN(C)CC2)cc(-c2ccccc2F)n1-c1ccccc1F	103471		MIC		8 µg/mL
CC(=O)NCCc1nc(-c2nc(C(=O)NCCC(C)C)cs2)cs1	H37Rv		MIC bound	BACTEC	>12.8 µg/mL
Cc1c(CN2CCSCC2)cc(-c2cccc3ccccc23)n1-c1ccccc1	103471		MIC		>16 µg/mL
CN[C@@H]1[C@H](O)[C@H](NC)[C@H]2O[C@@]3(O)[C@H](NC(=O)Cc4cccc(OC)c4)C[C@@H](C)C[C@H]3O[C@@H]2[C@H]1O	H37Rv		MIC	broth dilution	12.5 µg/mL
O=C(NC(Cc1c[nH]c2ccccc12)C(=O)O)c1ccccc1	H37Rv	12.5 µg/mL	inhibition	BACTEC	-2%
CCOC(=O)c1ccc2nc(C3C(c4ccccc4)C(=O)C3c3ccc(OC)cc3)[nH]c2c1	H37Rv		MIC	resazurin / fluorescence	>100 µM
Cc1c(CN2CCN(C)CC2)cc(-c2ccc(Cl)cc2)n1-c1ccc(F)cc1	103471		MIC		2 µg/mL
COc1ccc(N2CSC(=S)N(c3ccc(OC)cc3)C2)cc1	H37Rv	12.5 µg/mL	inhibition	BACTEC	77%
CCOC(=O)c1ccc2c(c1)nc(-c1ccc(N3CCOCC3)cc1)n2CCN1CCCOC1	H37Rv		EC50	resazurin / fluorescence	>100 µM
CC1(C)O[C@H]2OC([C@H](CCO)NCCCN[C@@H](CCO)C3O[C@@H]4OC(C)(C)O[C@@H]4[C@H]3OCc3ccccc3)[C@H](OCc3ccccc3)[C@H]2O1	H37Rv		MIC		>50 µg/mL
CCOC(=O)C1=C(C)NC(=O)NC1c1ccc([N+](=O)[O-])s1	H37Rv		MIC bound	resazurin	>6.25 µg/mL
NC(=O)c1cnccn1	Isolate 8989		MIC		>900 µg/mL
NC(=O)Nc1ccc2[nH]c(=O)c3ccccc3c2c1	H37Rv	12.5 µg/mL	inhibition	BACTEC	86%
COc1cc(Cc2cnc(/N=C3\C(=O)N(CN4CCCCC4)c4ccc(C)cc43)nc2N)cc(OC)c1OC	H37Rv		MIC		22 µg/mL
CCCCCCCCCCCCCCCCCCCCSCCC(=O)O	H37Ra		MIC50		0.63–1 µg/mL
COc1ccc2c(C)cc(N/N=C(\C)c3ccccn3)nc2c1	H37Rv		MIC	BACTEC	≥12.5 µg/mL
CC1(C)C[C@H]2[C@@H](C1)[C@@H](C(CCO)NCCCCNC(CCO)[C@H]1O[C@@H]3CC(C)(C)C[C@@H]3[C@H]3CC(C)(C)C[C@H]31)O[C@@H]1CC(C)(C)C[C@H]21	H37Rv		MIC		>12.5 µg/mL
COc1cc(C2c3[nH]c4ccccc4c3C[C@H]3COC(=O)N23)cc(OC)c1O	H37Rv	6.25 µg/mL	inhibition	resazurin	12%
O=[N+]([O-])c1ccc(-c2cn3nc(C(F)(F)F)sc3n2)cc1	H37Rv	6.25 µg/mL	inhibition		41%
Cc1c(NC(=O)CSc2nnc(-c3ccco3)n2-c2ccccc2)c(=O)n(-c2ccccc2)n1C	H37Rv		MIC	resazurin	>6.25 µg/mL
C[C@@](O)(/C=C/[C@H]1CC=CC(=O)O1)[C@@H](C[C@@H](O)\C=C/C=C\C=C\CO)OP(=O)(O)O	H37Rv		MIC bound	BACTEC	>12.5 µg/mL
COc1ccc2cc(NCC(=O)NN)ccc2c1	Drug-resistant		EC50		5 µg/mL
CC(=O)NC[C@H]1CN(c2cc(F)c(N3CCC(NC(=O)N(C)C)C3)c(F)c2)C(=O)O1	H37Rv		MIC100	resazurin	2.5 µM
Cc1c(NC(=O)C(C)Sc2nnc(-c3ccco3)n2-c2ccccc2)c(=O)n(-c2ccccc2)n1C	H37Rv	6.25 µg/mL	inhibition	resazurin	3%
COc1cc(CCC(=O)O)c2c(c1OC)C=CC(C)(C)O2	H37Rv		MIC	broth dilution / resazurin	210 µM
Cc1c(NC(=O)CSc2nnc(-c3ccco3)n2-c2ccc(Cl)cc2)c(=O)n(-c2ccccc2)n1C	H37Rv	6.25 µg/mL	inhibition	resazurin	inactive
CC(=O)NC[C@H]1CN(c2cc(F)c(N3CC4CCSCCC4C3)c(F)c2)C(=O)O1	H37Rv		MIC100	resazurin	0.62–1.25 µM
CCCCn1c(SCC(=O)Nc2c(C)n(C)n(-c3ccccc3)c2=O)nnc1-c1ccco1	H37Rv		MIC	resazurin	>6.25 µg/mL
CCOC(=O)c1ccc2c(c1)nc(-c1cccc(-c3ccc(F)cc3)c1)n2CCN1CCCOC1	H37Rv		EC90	resazurin / fluorescence	>100 µM
Cc1c(CN2CCSCC2)cc(-c2ccccc2Cl)n1-c1ccccc1Cl	103471		MIC		5 µg/mL
CCOC(=O)c1ccc2c(c1)nc(-c1ccc(O)cc1)n2CCN1CCCOC1	H37Rv		EC90	resazurin / fluorescence	>100 µM
COc1ccc(Cc2cnc(N)nc2N)cc1OC	Var. hominis		MIC		500 µg/mL
CC(=O)Oc1cc(Cl)ccc1C(=O)Nc1ccc(Cl)c(Cl)c1	My 331/88		MIC		1 µg/mL
CN[C@@H]1[C@H](O)[C@H](NC)[C@H]2O[C@@]3(O)[C@H](NC(=O)c4ccccn4)C[C@@H](C)C[C@H]3O[C@@H]2[C@H]1O	H37Rv		MIC	broth dilution	100 µg/mL
CC(=O)Oc1c(Cl)cccc1C(=O)Nc1ccc(Cl)c(Cl)c1	My 331/88		MIC		2 µg/mL
Cc1ccc(-c2cn3nc(C(F)(F)F)sc3n2)cc1	H37Rv		MIC		40 µg/mL
CCOC(=O)c1ccc2nc(-c3ccc(OC(F)(F)F)cc3)[nH]c2c1	H37Rv		EC50	resazurin / fluorescence	>100 µM
CSCCC(NC(=O)C(Cc1c[nH]c2ccccc12)NC(=O)OC(C)(C)C)C(=O)NN	H37Rv	12.5 µg/mL	inhibition	BACTEC	8%
COc1cc(Cc2cnc(N)nc2N)cc(OC)c1OC	Var. hominis		MIC		250 µg/mL
CC(C)=CCc1c2c(c3oc4c(cc5c6c(c(=O)cc(O)c64)OC5(C)C)c(O)c3c1O)C=CC(C)(C)O2			MIC		6.25 µg/mL
O=C1OC(=O)C2C1C1CCC2(C2OCCO2)O1	H37Rv	12.5 µg/mL	inhibition	BACTEC	9%
CCOC(=O)c1ccc2c(c1)nc(-c1ccc([N+](=O)[O-])cc1)n2CCN1CCCC1=O	H37Rv		EC90	resazurin / fluorescence	>100 µM
Cc1ccc(-n2c(SCC(=O)Nc3c(C)n(C)n(-c4ccccc4)c3=O)nnc2-c2ccco2)cc1	H37Rv	6.25 µg/mL	inhibition	resazurin	inactive

The first 7 rows once more:

{"compound": "CN(C)/C=N/S(=O)(=O)c1nn2c(/C=N/N=C(N)N)c(-c3ccc(Cl)cc3)nc2s1", "strain": "H37Rv", "endpoint": "MIC", "result": ">6.25 µg/mL"}
{"compound": "Cc1cc2nc(Nc3nc(C)c(C)c(=O)[nH]3)[nH]c2cc1C", "strain": "H37Rv", "endpoint": "MIC bound", "read by": "resazurin", "result": ">6.25 µg/mL"}
{"compound": "CC(CC(=O)NN)Nc1ccc2ccccc2c1", "strain": "H37Rv", "dose": "10 µg/mL", "endpoint": "inhibition", "result": "100%"}
{"compound": "Cc1c(NC(=O)CSc2nnc(-c3ccco3)n2C)c(=O)n(-c2ccccc2)n1C", "strain": "H37Rv", "dose": "6.25 µg/mL", "endpoint": "inhibition", "read by": "resazurin", "result": "inactive"}
{"compound": "CCOC(=O)C[C@H](NCCCN[C@@H](CC(=O)OCC)C1O[C@@H]2OC(C)(C)O[C@@H]2[C@H]1OCc1ccccc1)C1O[C@@H]2OC(C)(C)O[C@@H]2[C@H]1OCc1ccccc1", "strain": "H37Rv", "endpoint": "MIC", "result": "25 µg/mL"}
{"compound": "CCCCCCCCCCCCCCCCCCCSCCCC(=O)O", "strain": "H37Ra", "endpoint": "MIC50", "result": "0.63–1.25 µg/mL"}
{"compound": "O=C1C=C(Nc2ccccc2C(=O)CC(=O)C(=O)Nc2cccc([N+](=O)[O-])c2)c2ccccc2C1=O", "strain": "H37Rv", "endpoint": "MIC", "read by": "resazurin", "result": "≤0.1 µg/mL"}

An empty or dashed field is not shown. ECn is the concentration giving n% inhibition of infection, replication or growth. For "inactive" no cut-off is given. MIC bound: limit read from a one-dose screen. Percent inhibition refers to the dose given; in toxicity tests it is the harm to the cells. A number after MIC or MFC names an inhibition level or a share of isolates. Conditions beyond the fields shown may differ between rows.